Assay results from paper PMC10186300 (Scientific Reports, 2023).

By UniProt entry, the sequences of proteins in these tests, tags left out. Residues count along the entry.
UniProt Q07157, 186-264 F207W limits assumed: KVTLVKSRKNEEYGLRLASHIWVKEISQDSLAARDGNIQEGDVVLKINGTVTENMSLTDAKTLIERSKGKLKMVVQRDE

What was measured:
[1] = target: T1, PDZ2 domain of ZO1 (Homo sapiens, UniProt Q07157, F207W); test: Stopped-flow FRET binding kinetics of dansylated E peptides with PDZ2; conditions: dansyl-E peptide 2 μM vs increasing [PDZ2] F207W, Hepes 50 mM pH 7.0, 10 °C, excitation 280 nm, 475 nm cut-off, 3–5 traces averaged
[2] = target: T1, PDZ2 domain of ZO1; test: Equilibrium binding experiments (FRET); conditions: dansylated E peptide 1 µM, increasing [PDZ2] F207W, 50 mM Hepes pH 7.0, 10 °C, FRET signal at 500 nm, hyperbolic fit
[3] = 0 M NaCl, slope of kobs vs [PDZ2]

Compound	kon [1, 3] [M⁻¹ s⁻¹]	Kd ([2]; 0.030 M NaCl) [µM]	Kd ([2]; 0.075 M NaCl) [µM]	Kd ([2]; 0.150 M NaCl) [µM]	kon ([1]; 0.030 M NaCl) [M⁻¹ s⁻¹]	kon ([1]; 0.075 M NaCl) [M⁻¹ s⁻¹]	kon ([1]; 0.150 M NaCl) [M⁻¹ s⁻¹]
CC(C)C[C@H](NC(=O)[C@@H]1CCCN1C(=O)[C@@H]1CCCN1C(=O)[C@H](CCCCN)NC(=O)[C@H](CO)NS(=O)(=O)c1cccc2c(N(C)C)cccc12)C(=O)N1CCC[C@H]1C(=O)N1CCC[C@H]1C(=O)N[C@@H](CC(=O)O)C(=O)N[C@@H](CCC(=O)O)C(=O)N[C@@H](Cc1c[nH]c2ccccc12)C(=O)N[C@H](C(=O)O)C(C)C [MERS-CoV E peptide]	1.07e+07 ± 300000	19	34	29			
CC(C)C[C@H](NC(=O)[C@H](CC(=O)O)NC(=O)[C@@H]1CCCN1C(=O)[C@@H](NC(=O)CNC(=O)[C@H](CCC(=O)O)NC(=O)[C@H](CO)NC(=O)[C@H](CO)NC(=O)[C@H](CC(N)=O)NS(=O)(=O)c1cccc2c(N(C)C)cccc12)C(C)C)C(=O)N[C@@H](CC(C)C)C(=O)N[C@H](C(=O)O)C(C)C [SARS-CoV E peptide]	1.9e+06 ± 200000				1.4e+06 ± 200000	800000 ± 200000	600000 ± 100000
